Primary screen of a compound library

Measurements from “University of Dundee, Small-Polar-MMV Screening Library” (2021), ChEMBL document CHEMBL3988442.

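Phenotypic screen: M. tuberculosis growth, cholesterol and DPPC medium, 4 days; the read-out is not stated. Compounds at 500 µM. The record gives no direction; compounds that gave an IC50 in retests scored well above the rest, so higher reads as more growth inhibition. About 18,000 compounds were tested under these conditions; 5% (about 900) showed 50% or more at least once.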

The filed quantity is “Percent Effect” (%). How 0% and 100% were set is not recorded. Most values in the screen are low, and negative values occur. The entries come from a sample that favours strong results.

| SMILES | effect |
|---|---|
| `CCNC(=O)CNc1ccnc2ccc(Br)cc12` | 18.79% |
| `CSCC(=O)N1CCN(C)Cc2ccccc21` | 5.516% |
| `CNC(=O)CCc1cnn(-c2ccccc2)c1` | -4.818% |
| `NC1CC(c2cc(NCCN3CCOCC3)ncn2)C1` (configuration not stated) | -3.845% |
| `NC1COc2ccccc21` (configuration not stated) | -1.405% |
| `CN(CC(=O)N1CCNC1=O)Cc1ccc(Cl)s1` | 1.008% |
| `O=C(OCc1cc(=O)n2ccsc2n1)c1cc(Cl)c[nH]1` | 2.422% |
| `CNC(=O)NC(=O)CCCN(C)Cc1ccsc1` | -11.01% |
| `CC(C)(N)CN1CCCOCC1` | -1.882% |
| `COc1cc(CN2CCNCC2)cc(OC)c1` | 15.12% |
| `COCCNc1nc(-c2ccc(S(N)(=O)=O)cc2)cs1` | 56.74% |
| `COC(C)(C)CNc1ccc(OC(F)F)cn1` | 19.07% |
| `COc1cccc(C(CO)Nc2ncccc2C#N)c1` (configuration not stated) | 6.022% |
| `CC(CC(=O)N1CCOCC1)NC(=O)c1ccccc1` (configuration not stated) | 22.82% |
| `Cc1ccc(F)c(NC(=O)C2CCCN2S(C)(=O)=O)c1` (configuration not stated) | -1.695% |
| `COCC1(C(=O)NC(Cn2ccnc2)C(C)(C)C)CC1` (configuration not stated) | 9.35% |
| `COCC(C)NC(=O)CNc1ccc(OC)c(Br)c1` (configuration not stated) | 74.64% |
| `N[C@H]1CN(C(=O)Cn2cc(Cl)cn2)C[C@@H]1C1CC1` | 13.53% |
| `Cc1cccnc1CSc1nnnn1CC1CCCO1` (configuration not stated) | 12.34% |
| `Cc1ccc(NC(=O)CN2CCNC(=O)C2)c(Cl)c1` | -8.983% |
| `Cc1nc(-c2ccc(CN)o2)cs1` | 3.338% |
| `CN(Cc1c(F)cccc1Cl)S(=O)(=O)N1CCOCC1` | 53.95% |
| `CC(C)COCC(C)NC(=O)c1ccc2nncn2c1` (configuration not stated) | 4.825% |
| `OCCOc1ccc(NCc2ccsc2)cn1` | -20.84% |
| `Cn1cc(Br)c(=O)c(NC(=O)c2ccc(O)cc2F)c1` | 3.635% |
| `N#Cc1cccc(NCC(=O)NCc2ccco2)c1` | 53.27% |
| `CSc1nnc(CN(C)CCO)s1` | 48.93% |
| `CC(C)c1ccc(-c2nnn(CC(=O)N(C)C)n2)cc1` | -8.704% |
| `CCN(CC)CCOC1CNC1` | -7.015% |
| `CSc1nc(C(=O)N2CCSCC2)c2ccccn12` | 5.485% |
| `c1cc(CC2CCNCC2)ccn1` | 2.109% |
| `NC(=O)C1CCCCN1CC(=O)Nc1cccc(F)c1` (configuration not stated) | -17.23% |
| `COc1cc(NC(=O)N(C)CCN(C)C)ccc1F` | 7.394% |
| `CNC(=O)NC(=O)CCN1CCCC(C)C1` (configuration not stated) | 17.68% |
| `NS(=O)(=O)NCC1CCCN(CCc2cccs2)C1` (configuration not stated) | 17.78% |
| `N[C@H]1CN(C(=O)c2c(F)cccc2F)C[C@@H]1C1CC1` | 17.37% |
| `CC(C)CN1CCN(c2ncccc2F)CC1` | -3.334% |
| `NS(=O)(=O)CC1CCCN1` (configuration not stated) | -0.3575% |
| `COc1ccc(CNC(=O)c2cnsn2)cc1` | -10.32% |
| `CNC(=O)C1CCCN(C(=O)c2ccc(O)cc2F)C1` (configuration not stated) | 7.45% |
| `CC(=O)N1CCC(OCCOc2ccccc2)CC1` | 27.67% |
| `CC1(C)Oc2ccc(CN)cc2O1` | -2.462% |
| `N[C@H]1CN(S(=O)(=O)c2cccc(F)c2)C[C@@H]1C1CC1` | 10.69% |
| `CCc1nnc(NCCCc2cccnc2)o1` | 5.54% |
| `Cc1c(Cl)cccc1OCC(=O)NC(C(N)=O)C(C)C` (configuration not stated) | 18.29% |
| `CNCCCNS(C)(=O)=O` | -3.415% |
| `Cc1nc2ccc(N)cn2n1` | -234.3% |
| `COc1ccc(-c2nc(CS(C)(=O)=O)cs2)cc1` | 4.383% |
| `Cc1cc(C(=O)NCCCNc2ccccn2)no1` | -14.65% |
| `Cc1nonc1CC(=O)N1CCCC(c2ncc[nH]2)C1` (configuration not stated) | 3.902% |
| `CCOC(=O)CNC(=O)Nc1ccc(C#N)cc1` | 4.596% |
| `O=S(=O)(CCN1CCN(CCO)CC1)C(F)(F)F` | 32.8% |
| `COc1cc(C(=O)CCN(C)C)cc(OC)c1OC` | 111% |
| `CN1C(=O)C[C@@H](N)[C@@H]1c1ccc(Cl)c(Cl)c1` | -1.328% |
| `CC(c1ccncc1)N(C)C(=O)c1c[nH]c(=O)c(Cl)c1` (configuration not stated) | 6.866% |
| `Cc1cccc2nc(CN(C)C(=O)CN(C)C)[nH]c12` | -5.608% |
| `COc1ccc(CNCCSc2nnnn2C)cc1` | 31.98% |
| `CNC(=O)c1cccc(NCc2ccc(C#N)s2)n1` | 53.18% |
| `CN(Cc1cnn(C)c1)C(=O)c1cc(Br)c[nH]1` | 55.2% |
| `O=C(CCc1ccccc1)NCCNc1cnccn1` | 5.408% |
| `NCc1nc(-c2cccc(C(F)(F)F)c2)no1` | 73.84% |
| `CCC(C)Oc1cc(C(=O)NCc2ncc[nH]2)ccn1` (configuration not stated) | 1.415% |
| `CN1CCCN(C(=O)c2csc3c2CCCC3)CC1` | 18.47% |
| `O=C(NCc1cn2ccccc2n1)C1CC1` | 1.84% |
| `CNC(=O)Cc1noc(COC2CCCCC2)n1` | 11.97% |
| `CNC(=O)C1CCCN1Cc1ncc(C(C)(C)C)o1` (configuration not stated) | 21.4% |
| `Cc1ccoc1C(=O)N(C)Cc1nc(C(C)C)no1` | 56.35% |
| `O=C(Nc1ccccn1)C1CCS(=O)(=O)C1` (configuration not stated) | 1.734% |
| `Cc1ccc(OCCOC(=O)N(C)C)nc1` | -4.307% |
| `CCc1cccc(S(=O)(=O)N2CC[C@H](N)C2)c1` | 13.12% |
| `CNc1snc(C)c1C(=O)NCc1ncoc1C` | -4.735% |
| `O[C@@H]1CCNC[C@@H]1O` | -12.78% |
| `Cc1nc(C(=O)NC(C)C(C)C)ccc1C#N` (configuration not stated) | 35.33% |
| `NC(=O)CC1CCCNC1` (configuration not stated) | 3.614% |
| `O=C(NC1CCCCC1)c1ccc(CO)cc1` | 63.3% |
| `CCN1CCCN(c2ccccn2)CC1` | 11.48% |
| `O=C(N[C@H](CO)c1ccccc1)c1cccnc1` | -7.246% |
| `NC(=O)C1CCN(C(=O)Cc2ccsc2)CC1` | -34.68% |
| `Cc1c(Br)cccc1C(=O)NC(C(N)=O)C(C)C` (configuration not stated) | -15.68% |
| `CCNC(=O)Nc1cc(OC)cc(OC)c1` | 37.01% |
| `c1cc2c(cc1-c1nc3c([nH]1)CCNC3)OCO2` | -0.2435% |
| `O=C(NCCCNCc1cccnc1)c1ccc(Cl)s1` | 20.63% |
| `COCCC(=O)c1ccc(F)cc1` | 3.332% |
| `NC(=O)C(Sc1nnc[nH]1)c1ccc(Br)cc1` (configuration not stated) | 40.81% |
| `CC(C)(C)OC(=O)NCC(C)(N)C1CC1` (configuration not stated) | 16.25% |
| `CC(NC(=O)C(C)(C)C)c1ccncc1` (configuration not stated) | 13.33% |
| `Cc1ccc(OC(C)C(=O)NCCCC(N)=O)cc1` (configuration not stated) | 11.4% |
| `O=C(Oc1nsnc1N1CCCCC1)N1CCOCC1` | 62.67% |
| `CCOC(=O)C1(N)CCN(C)CC1` | -20.71% |
| `CCn1ccc(CN2CCOCS2(=O)=O)n1` | -13.61% |